Details of test [1]: species or system C57BL/6 mice. To be noted: mouse, in vivo, iv.
The subject of the next test is B. anthracis. On the set-up: species or system A/J mice. To be noted: mouse, in vivo.

As to “MSA: mouse serum albumin, carrier control [reference compound]”, the serum cytokine levels entry in test [1] was “little or no detectable cytokine levels”. In addition, in the test on B. anthracis, the “effect on survival / protection” value is recorded as “no significant difference”.
